Experimental data reported in patent US20220000976A1 (priority 2018, published 2022).

Test system: ROR-γt+ Treg cells
Settings: sham versus I3S-treated mice

Q: With `O=S(=O)(O)Oc1c[nH]c2ccccc12` [I3S, Indoxyl sulfate] as the compound, how does the “Percentage of total gut Treg cells (CD4+Foxp3+)” value read?
A: did not display a statistically significant change

Structures can show the parent of a compound that is named as a salt.
